{"source": "patent US20220235325A1", "about": "“STIMULATION OF DENDRITIC CELL ACTIVITY BY HOMOTAURINE AND ANALOGUES THEREOF” (Therapeutic Solutions International, Inc., priority 2021, published 2022)", "origin": "cited, not measured here", "tested_on": "M2 macrophages", "conditions": "EGFR-positive cells loaded with low concentrations of antibody; cited from earlier work"}
{"substance": "cetuximab: anti-epidermal growth factor receptor (EGFR) monoclonal antibody (mAb)", "values": [{"measurement": "IL-10 and VEGF production", "value": "further augmentation"}]}
